Anti-infective test results gathered from many reports (values: NIAID ChemDB through PubChem).

Shared fields: growth or infection tests; agent: Mycobacterium tuberculosis

Blank or dashed fields: not listed here.

SMILES	read by	dose	changes	cells	strain or isolate	conditions	measure	result
CC(=N\NC(=O)c1ccc([N+](=O)[O-])o1)/C(Cl)=N/Nc1ccc(C)cc1					RCMB 010126		MIC	125 µg/mL
Cc1ccc(-n2c3nc(=O)n(C)c(=O)c-3nc3ccccc32)cc1C	BACTEC				H37Rv		MIC bound	>12.5 µg/mL
CC[C@@H](CO)NCCN[C@@H](CC)CO					H37RV (DL8280-R)		MIC	1.25 µg/mL
CC1=C[C@@]23[C@H](C=C(C(=O)O)[C@@H]2COC(=O)[C@]32CO2)[C@H]1C	BACTEC				H37Rv		MIC bound	>12.5 µg/mL
CCCN1CCN(c2cc(=O)c3nc4c(oc3c2)c2c(=O)c3c(O)c(C)c5c(c34)=C(O)[C@@](C)(O/C=C/[C@H](OC)[C@@H](C)[C@@H](OC(C)=O)[C@H](C)[C@H](O)[C@H](C)[C@@H](O)[C@@H](C)/C=C/C=C(/C)C(=O)N2)O5)CC1					H37Rv		MIC	0.035 µg/mL
O=C(NCCc1ccccc1)c1cc([N+](=O)[O-])cc([N+](=O)[O-])c1	broth dilution / turbidity / visual reading		Rifampicin-resistant		RifR		MIC	1.59 µM
C[C@H](NC(=O)OCc1ccccc1)c1cnc(-c2ccc([N+](=O)[O-])cc2)[nH]1					My 331/88	21 d	MIC	>125 µM
CC(=O)N1c2ccc3ccccc3c2S(=O)(=O)c2ccc3ccccc3c21	BACTEC	12.5 µg/mL			H37Rv		inhibition	33%
CO[C@H]1/C=C/O[C@@]2(C)Oc3c(C)c(O)c4c(O)c(c5c(c4c3C2=O)NC2(CCN(CC(C)C)CC2)N=5)=NC(=O)/C(C)=C\C=C\[C@H](C)[C@H](O)[C@@H](C)[C@@H](O)[C@@H](C)[C@H](OC(C)=O)[C@@H]1C					H37Rv		MIC	0.035 µg/mL
COc1cccc(NC(=O)c2cc([N+](=O)[O-])cn2C)c1					H37Rv		MIC90	>200 µg/mL
CC1COc2c(N3CCN(C)CC3)c(F)cc3c(=O)c(C(=O)O)cn1c23					H37RV (EMB-R)		MIC	0.63–1.25 µg/mL
COc1cc(-c2nnc(SCC(=O)c3ccc(C)cc3)o2)cc(OC)c1OC	BACTEC	6.25 µg/mL			H37Rv		inhibition	48%
O=c1oc2ccccc2c(=O)n1-c1ccc(Br)cc1					CNCTC MY331/88		MIC	31 µM
C[C@]1(COc2ccc(-c3cc(COc4ccc(C(F)(F)F)cc4)on3)cc2)Cn2cc([N+](=O)[O-])nc2O1	broth dilution / resazurin				H37Rv		MIC	0.51 µM
Cn1cc([N+](=O)[O-])nc1C(=O)NCc1ccc2c(c1)OCO2					H37Rv		MIC90	>200 µg/mL
COc1c(N2CCNC(C)C2)c(F)cc2c(=O)c(C(=O)O)cn(C3CC3)c12	resazurin				18b		MIC	0.5 µg/mL
O=C(Nc1ccccc1Cl)c1cnccn1	BACTEC	6.25 µg/mL			H37Rv		inhibition	15%
COc1cc(C=NNC(=O)c2cnc3c(ccc4[nH]c(Cl)cc(C)c43)c2=O)ccc1O					H37Rv		MIC	500 µg/mL
NC(=O)c1cnccn1		800 µg/mL			Erdman	7 d	inhibition	96.5%
C[C@H]1CC[C@@H]2[C@@H](C)[C@H]3[C@H](C[C@H]4[C@@H]5CC=C6C[C@@H](O)CC[C@]6(C)[C@H]5C[C@H](O)[C@]34C)N2C1	BACTEC				H37Rv		MIC bound	>12.8 µg/mL
O=c1oc2ccc([N+](=O)[O-])cc2c(=O)n1-c1ccc(Cl)cc1					CNCTC MY331/88		MIC	16 µM
COc1cc(-c2nn3c(C(C)(C)C)nnc3s2)cc(OC)c1OC	resazurin				18b		MIC	16 µg/mL
CCc1nc(Cc2ccccc2)nc2c1nc(-c1ccccc1)n2Nc1ccccc1	BACTEC	12.5 µg/mL			H37Rv		inhibition	7%
Cc1ccc(OCc2cn(-c3ccc(OC[C@@]4(C)Cn5cc([N+](=O)[O-])nc5O4)cc3)nn2)cc1	broth dilution / resazurin				ss18b non-replicating phase		MIC	8.66 µM
C[C@@H](NC(=O)c1cc([N+](=O)[O-])cc([N+](=O)[O-])c1)c1ccccc1	broth dilution / turbidity / visual reading		Rifampicin-resistant		RifR		MIC	<0.47 µM
O=c1c(S(=O)(=O)c2cccc(F)c2)c[nH]c2ccc(F)cc12	resazurin				18b		MIC	16 µg/mL
O=C(Nn1c(-c2ccccc2)nc2ccccc2c1=O)c1ccccn1	resazurin	6.25 µg/mL			H37Rv		inhibition	21%
CN[C@@H]1[C@H](O[C@H]2[C@H](O[C@H]3[C@H](O)[C@@H](O)[C@H](N=C(N)N)[C@@H](O)[C@@H]3N=C(N)N)O[C@@H](C)[C@]2(O)C=O)O[C@@H](CO)[C@H](O)[C@H]1O					H37Rv		MIC	0.625 µg/mL
Oc1ccccc1-c1nnc(SCC2(c3ccccc3)OCCO2)o1	BACTEC	6.25 µg/mL			H37Rv		inhibition	55%
C=CCCCCn1c2ccccc2c2c(C)c3cnccc3c(C)c21	resazurin			VERO	H37Rv		MIC	0.78 µg/mL
NC[C@H]1O[C@H](O[C@H]2[C@H](O)[C@@H](O[C@H]3O[C@H](CO)[C@@H](O)[C@H](N)[C@H]3O)[C@H](N)C[C@@H]2N)[C@H](O)[C@@H](O)[C@@H]1O					H37Rv		MIC	25 µg/mL
O=C(NCc1ccccc1Cl)c1ccc([N+](=O)[O-])s1					H37Rv		MIC90	25 µg/mL
Cn1c(=O)c2[nH]c(SSc3nc4c([nH]3)c(=O)n(C)c(=O)n4C)nc2n(C)c1=O	BACTEC				H37Rv		MIC bound	>6.25 µg/mL
NNC(=O)c1ccncc1					H37Rv		MIC	0.12 µg/mL
CC(=N\NC(=O)c1ccc([N+](=O)[O-])o1)/C(Cl)=N/Nc1ccc(S(N)(=O)=O)cc1					RCMB 010126		MIC	3.9 µg/mL
CNC(=O)OCn1cnc(Cl)c1Cl	BACTEC	12.5 µg/mL			H37Rv		inhibition	0%
NC1CCN(c2c(F)cc3c(=O)c(C(=O)O)cn(C4CC4)c3c2Cl)C1					20 strains		MIC90	1 µg/mL
Cc1cc(Cl)[nH]c2ccc3c(=O)c(C(=O)NN=Cc4cccc([N+](=O)[O-])c4O)cnc3c12					H37Rv		MIC	62.5 µg/mL
Clc1ccc(Nc2cc3nc4ccccc4n(-c4ccc(Cl)c(Cl)c4)c-3cc2=NC2CCNCC2)cc1Cl					MTB9 (RIF-resistant)		MIC	0.5 µg/mL
Cc1cc(Cl)[nH]c2ccc3c(=O)c(C(=O)NN4C(=O)C(Cl)C4c4ccccc4O)cnc3c12					H37Rv		MIC	500 µg/mL
COc1ccc(C(=O)CSc2nnc(-c3cc(OC)c(OC)c(OC)c3)o2)cc1OC	BACTEC	6.25 µg/mL			H37Rv		inhibition	31%
O=C(OCc1ccccc1)N1CCC[C@H]1c1cnc(-c2ccc([N+](=O)[O-])cc2)[nH]1					My 331/88	21 d	MIC	32 µM
CC(=N\NC(=O)c1ccc([N+](=O)[O-])o1)/C(Cl)=N/Nc1ccccc1					RCMB 010126		MIC	7.81 µg/mL
Cc1cc(Cl)[nH]c2ccc3c(=O)c(C(=O)NN4C(=O)C(Cl)C4c4ccccc4)cnc3c12					H37Rv		MIC	250 µg/mL
O=C(CSc1nnc(-c2ccccc2)o1)c1ccccc1	BACTEC	6.25 µg/mL			H37Rv		inhibition	28%
CN(C)CCCNC(=O)c1cn2c(ccc3sc4ccccc4c(=O)c32)n1	BACTEC				H37Rv		MIC bound	>12.5 µg/mL
C[C@]1(COc2ccc(-n3cc(-c4cccc(C(F)(F)F)c4)nn3)cc2)Cn2cc([N+](=O)[O-])nc2O1	broth dilution / resazurin				H37Rv		MIC	8.23 µM
COc1ccc(CNC(=O)c2cc([N+](=O)[O-])cn2C)cc1OC					H37Rv		MIC90	>200 µg/mL
O=C(CSc1nnc(-c2ccccc2)o1)c1ccc([N+](=O)[O-])cc1	BACTEC	6.25 µg/mL			H37Rv		inhibition	24%
O=c1[nH]c2c(Cl)cc(Cl)c(Cl)c2c2ccccc12	BACTEC				H37Rv		MIC bound	>6.25 µg/mL
O=C(N[C@@H](Cc1ccccc1)c1cnc(-c2ccc([N+](=O)[O-])cc2)[nH]1)OCc1ccccc1					My 331/88	14 d	MIC	16 µM
Cc1cc(S(=O)(=O)Nc2n[nH]c(Nc3ccccc3)n2)c(SSc2cc(Cl)c(C)cc2S(=O)(=O)Nc2n[nH]c(Nc3ccccc3)n2)cc1Cl	BACTEC				H37Rv		MIC bound	>12.5 µg/mL
CC[C@@H](C)[C@H](NC(=O)OCc1ccccc1)c1cnc(-c2ccc([N+](=O)[O-])cc2)[nH]1					My 331/88	21 d	MIC	32 µM
O=c1oc2ccc(Br)cc2c(=O)n1-c1cccc(F)c1					CNCTC MY331/88		MIC	8 µM
CCOc1ccc(S(=O)(=O)[C@H]2CS(=O)(=O)C[C@@H]2NC2CCCC2)cc1	resazurin				18b		MIC	8 µg/mL
NNC(=O)c1ccncc1	BACTEC				CDC1551		MIC	0.023 µg/mL
Cc1ccc2c(=O)n(-c3ccc(Cl)c(Cl)c3)c(=O)oc2c1					CNCTC MY331/88		MIC	16 µM
COc1ccc(-c2cc(C(=O)NN=Cc3ccc([N+](=O)[O-])cc3)c3ccc(C)cc3n2)cc1OC	BACTEC				H37Rv		MIC bound	>12.5 µg/mL
C[C@H](NC(=O)OCc1ccccc1)c1cnc(-c2ccccc2)[nH]1					My 331/88	14 d	MIC	125 µM
COc1cc(-c2nnc(SCC(=O)c3ccc(F)cc3)o2)cc(OC)c1OC	BACTEC	6.25 µg/mL			H37Rv		inhibition	27%
S=C(S)NNc1ccccc1					RMP-R		MIC	>12.5 µg/mL
Cc1cccc(-n2nc([N+](=O)[O-])c(=Nc3ccc(C)cc3C)n2O)c1	resazurin				18b		MIC	8 µg/mL
Cc1[nH]n(-c2ccc(Cl)cc2)c(=O)c1N=Nc1cccc(C(F)(F)F)c1	BACTEC	12.8 µg/mL			H37Rv		inhibition	34%
C[C@]1(COc2ccc(-n3cc(COc4cccc(Cl)c4)nn3)cc2)Cn2cc([N+](=O)[O-])nc2O1	broth dilution / resazurin				ss18b non-replicating phase		MIC	8.3 µM
COc1ccc(CC(=O)c2cc([N+](=O)[O-])cn2C)c(OC)c1					H37Rv		MIC90	>200 µg/mL
CNc1nc(N2CCCC2)nc(-n2cnc(SCC(=O)OC)n2)n1	resazurin				18b		MIC	16 µg/mL
N=C1/C(=C/c2ccccc2O)C(=O)NN1C(=O)c1ccncc1				VERO	H37Rv		MIC	0.78 µg/mL
C[C@]1(COc2ccc(-n3cc(COc4ccc(F)cc4)nn3)cc2)Cn2cc([N+](=O)[O-])nc2O1	broth dilution / resazurin				ss18b non-replicating phase		MIC	8.6 µM
C=C/C(C)=C/[C@@]1(C)SC(=O)C(C)=C1O					Erdman		MIC	25 µg/mL
CCOC(=O)Cc1ccc2[nH]c(C(=O)OCC)cc(=O)c2c1	BACTEC				H37Rv		MIC bound	>12.5 µg/mL
COc1cc(-c2nnc(SCc3ccccn3)o2)cc(OC)c1OC	BACTEC	6.25 µg/mL			H37Rv		inhibition	39%
O=C(N/N=C(/CS(=O)(=O)c1ccccc1)c1ccccc1)c1ccc([N+](=O)[O-])o1					RCMB 010126		MIC	15.63 µg/mL
CO[C@H]1/C=C/O[C@@]2(C)Oc3c(C)c(O)c4c(O)c(c(/C=N/N5CCN(C)CC5)c(O)c4c3C2=O)NC(=O)/C(C)=C\C=C\[C@H](C)[C@H](O)[C@@H](C)[C@@H](O)[C@@H](C)[C@H](OC(C)=O)[C@@H]1C					H37Rv		MIC	0.6 µg/mL
Cc1cc(O)c2c(c1)C(=O)C=CC2=O					WC 64/02		MIC	0.5 µg/mL
Sc1cc2c(c3ccccc13)Nc1ccccc1S2	BACTEC	12.5 µg/mL			H37Rv		inhibition	81%
Cc1ccc(Cl)cc1N=c1c([N+](=O)[O-])nn(-c2ccccc2)n1O	resazurin				Clinical isolate		MIC	16 µg/mL
CC(C)c1cccc(C(C)C)c1NC1=CC(=O)C(=O)c2ccccc21	resazurin				H37Rv		MIC bound	>6.25 µg/mL
COc1cc(-c2nnc(SCC3(c4ccc(Cl)cc4)OCCO3)o2)cc(OC)c1OC	BACTEC	6.25 µg/mL			H37Rv		inhibition	28%

Again, the opening 6 rows:

SMILES | read by | dose | changes | cells | strain or isolate | conditions | measure | result
CC(=N\NC(=O)c1ccc([N+](=O)[O-])o1)/C(Cl)=N/Nc1ccc(C)cc1 |  |  |  |  | RCMB 010126 |  | MIC | 125 µg/mL
Cc1ccc(-n2c3nc(=O)n(C)c(=O)c-3nc3ccccc32)cc1C | BACTEC |  |  |  | H37Rv |  | MIC bound | >12.5 µg/mL
CC[C@@H](CO)NCCN[C@@H](CC)CO |  |  |  |  | H37RV (DL8280-R) |  | MIC | 1.25 µg/mL
CC1=C[C@@]23[C@H](C=C(C(=O)O)[C@@H]2COC(=O)[C@]32CO2)[C@H]1C | BACTEC |  |  |  | H37Rv |  | MIC bound | >12.5 µg/mL
CCCN1CCN(c2cc(=O)c3nc4c(oc3c2)c2c(=O)c3c(O)c(C)c5c(c34)=C(O)[C@@](C)(O/C=C/[C@H](OC)[C@@H](C)[C@@H](OC(C)=O)[C@H](C)[C@H](O)[C@H](C)[C@@H](O)[C@@H](C)/C=C/C=C(/C)C(=O)N2)O5)CC1 |  |  |  |  | H37Rv |  | MIC | 0.035 µg/mL
O=C(NCCc1ccccc1)c1cc([N+](=O)[O-])cc([N+](=O)[O-])c1 | broth dilution / turbidity / visual reading |  | Rifampicin-resistant |  | RifR |  | MIC | 1.59 µM

Two numbers with a dash give a range or band. Neighbouring rows are from separate reports. A number after MIC or MFC names an inhibition level or a share of isolates. MIC bound comes from a single tested concentration. Percent inhibition refers to the dose given; in toxicity tests it is the harm to the cells.